Anti-infective test results gathered from many reports (values: NIAID ChemDB through PubChem).

Common to all: tests on isolated targets

ICn: concentration for n% inhibition.

CS(=O)(=O)C[C@H](NC(=O)COc1cccc2ccccc12)C(=O)N[C@@H](Cc1ccccc1)[C@H](O)C(=O)N1CSC[C@H]1C(=O)NC1CCC(O)CC1 ; species: HIV-1 ; target: Protease ; measure: inhibition ; tested at: 5 µM ; value: >90%
O=C(O)Cc1ccc(-c2ccc(NC(=O)CSc3nnnn3-c3ccc(C(F)(F)F)cc3Cl)c(Cl)c2)cc1 ; species: HIV-1 ; target: Reverse transcriptase ; strain or isolate: WT ; measure: IC50 ; method: PicoGreen / fluorescence ; value: <1 µM
CC(C)[C@H](N)C(=O)N[C@H](C(=O)N[C@@H](Cc1ccccc1)[C@@H](O)C(=O)N[C@@H](Cc1ccccc1)C(=O)N[C@H](C(=O)N[C@H](C(N)=O)C(C)C)C(C)C)C(C)C ; species: HIV-1 ; target: Protease ; measure: inhibition ; tested at: 1000 µM ; value: 99%
Cc1nc(CN2CCn3c(nc(C(=O)NCc4ccc(F)cc4)c(O)c3=O)C2(C)C)no1 ; species: HIV-1 ; target: Integrase ; measure: IC50 ; method: ELISA ; value: <10 µM
COc1ccnc2[nH]cc(C(=O)C(=O)N3CCN(C(=O)c4ccccc4)C[C@H]3C)c12 ; species: HIV-1 ; target: gp120 ; changes: GP120-V68A/M426L ; strain or isolate: LAI ; measure: fold resistance ; method: ELISA ; value: >91
O=C(NCc1ccc(F)cc1)c1nc2n(c(=O)c1O)CCOCC2 ; species: HIV-1 ; target: Integrase ; measure: IC50 ; method: ELISA ; value: <10 µM
CC(C)NC(=O)[C@@H]1CCCN1C(=O)[C@@H](O)[C@H](Cc1ccccc1)NC(=O)[C@H](CC(N)=O)NC(=O)OCc1ccccc1 ; species: HIV-1 ; target: Protease ; measure: inhibition ; tested at: 5 µM ; value: 90%
CC(C)(CO)Oc1ccc(NC(=O)CSc2nnnn2-c2ccc(C3CC3)cc2Cl)c(Cl)c1 ; species: HIV-1 ; target: Reverse transcriptase ; changes: RT-K103 Y181C ; measure: IC50 ; method: PicoGreen / fluorescence ; value: <1 µM
CC(=O)N(C)C1CN(C)CCn2c1nc(C(=O)NCc1ccc(F)cc1)c(O)c2=O ; species: HIV-1 ; target: Integrase ; measure: IC50 ; method: ELISA ; value: <10 µM
CN(C)CC(=O)NC(C)(C)C#Cc1ccc(NC(=O)CSc2nnnn2-c2ccc(C3CC3)cc2Cl)c(Cl)c1 ; species: HIV-1 ; target: Reverse transcriptase ; strain or isolate: WT ; measure: IC50 ; method: PicoGreen / fluorescence ; value: <1 µM
O=C(O)CN1CCn2c(nc(C(=O)NCc3ccc(F)cc3)c(O)c2=O)C1 ; species: HIV-1 ; target: Integrase ; measure: IC50 ; method: ELISA ; value: <10 µM
COC(C)[C@H](NC(=O)COc1cccc2ccccc12)C(=O)N[C@@H](Cc1ccccc1)[C@H](O)C(=O)N1CSC[C@H]1C(=O)NC(C)(C)C ; species: HIV-1 ; target: Protease ; measure: inhibition ; tested at: 0.05 µM ; value: 94.3%
O=C(CSc1nnnn1-c1ccc(C2CC2)cc1Cl)Nc1ccc(C#CCCN2CCC(O)CC2)cc1Cl ; species: HIV-1 ; target: Reverse transcriptase ; strain or isolate: WT ; measure: IC50 ; method: PicoGreen / fluorescence ; value: <1 µM
CC[C@H](C)[C@@H](C(=O)N[C@H](C(N)=O)C(C)C)N(C)C(=O)[C@@H]1CCCN1C(=O)[C@@H](O)[C@H](Cc1ccccc1)NC(=O)[C@H](CC(N)=O)NC(=O)CCc1ccccc1 ; species: HIV-1 ; target: Protease ; measure: inhibition ; tested at: 5 µM ; value: 7.1%
CC(C)(C#Cc1ccc(NC(=O)CSc2nnnn2-c2cc(C(F)(F)F)ccc2Cl)c(Cl)c1)NC(=O)c1cc[n+]([O-])cc1 ; species: HIV-1 ; target: Reverse transcriptase ; changes: RT-K103 Y181C ; measure: IC50 ; method: PicoGreen / fluorescence ; value: <1 µM
O=C(NCc1ccc(F)cc1)c1nc2n(c(=O)c1O)CCN(C(=O)C(F)(F)F)C2 ; species: HIV-1 ; target: Integrase ; measure: IC50 ; method: ELISA ; value: <10 µM
CN(C)c1ccc(NC(=O)COc2ccc(NC(=O)CSc3nnnn3-c3ccc(C(C)(C)C)cc3Cl)c(Cl)c2)cc1 ; species: HIV-1 ; target: Reverse transcriptase ; changes: RT-K103 Y181C ; measure: IC50 ; method: PicoGreen / fluorescence ; value: <1 µM
Nc1nc2c(ncn2[C@H]2CO[C@@H](COP(=O)(O)OP(=O)(O)OP(=O)(O)O)O2)c(=O)[nH]1 ; species: HIV ; target: Reverse transcriptase ; changes: RT-K65R Q151M ; measure: fold resistance ; method: radiometric ; value: 15
CC1(C)c2nc(C(=O)NCc3ccc(F)cc3)c(O)c(=O)n2CCN1CC(=O)NCc1ccncc1 ; species: HIV-1 ; target: Integrase ; measure: IC50 ; method: ELISA ; value: <10 µM
CC(C)(C)NC(=O)[C@H]1C[C@@H](O)CCN1C(=O)[C@@H](O)[C@H](Cc1ccccc1)NC(=O)[C@H](CC(N)=O)NC(=O)OCc1ccccc1 ; species: HIV-1 ; target: Protease ; measure: inhibition ; tested at: 5 µM ; value: 16%
CC(C)(C#Cc1ccc(NC(=O)CSc2nnnn2-c2cc(C(F)(F)F)cc(C3CC3)c2Cl)c(Cl)c1F)NC(=O)c1ccc[n+]([O-])c1 ; species: HIV-1 ; target: Reverse transcriptase ; changes: RT-K103 Y181C ; measure: IC50 ; method: PicoGreen / fluorescence ; value: <1 µM

Repeating the first 2 entries:

structure	species	target	changes	strain or isolate	measure	tested at	method	value
CS(=O)(=O)C[C@H](NC(=O)COc1cccc2ccccc12)C(=O)N[C@@H](Cc1ccccc1)[C@H](O)C(=O)N1CSC[C@H]1C(=O)NC1CCC(O)CC1	HIV-1	Protease	-	-	inhibition	5 µM	-	>90%
O=C(O)Cc1ccc(-c2ccc(NC(=O)CSc3nnnn3-c3ccc(C(F)(F)F)cc3Cl)c(Cl)c2)cc1	HIV-1	Reverse transcriptase	-	WT	IC50	-	PicoGreen / fluorescence	<1 µM

Fold resistance has wild type as its base. Inhibition is in % at the dose shown (toxicity tests: loss of growth or viability). Rows are shuffled and stem from different studies. An empty or dashed field is not shown.